Where a SMILES comes first, the peptide text is derived from it. Bridges are numbered along the chain shown (N, C = ends).

This note sets out measurements from US20050256302A1, “Novel peptides having camp producing activity” (Japan Science and Technology Agency, priority 2002, published 2005).

A short description of the data set: Concentration of CRSP in tissues by radioimmunoassay. The arrangement: species or system pig. Conditions: mean ± standard error (n = 3).

On to `CSCC[C@H](NC(=O)[C@H](CCCCN)NC(=O)[C@@H](NC(=O)[C@@H]1CCCN1C(=O)[C@H](CC(C)C)NC(=O)[C@H](CC(C)C)NC(=O)[C@H](CC(N)=O)NC(=O)[C@H](CO)NC(=O)[C@H](CCCNC(=N)N)NC(=O)[C@@H](NC(=O)[C@H](CCSC)NC(=O)[C@H](CO)NC(=O)CNC(=O)[C@H](CO)NC(=O)[C@H](CCCNC(=N)N)NC(=O)[C@H](CO)NC(=O)[C@H](CC(C)C)NC(=O)[C@H](CC(C)C)NC(=O)CNC(=O)[C@@H](NC(=O)[C@H](CC(C)C)NC(=O)[C@H](CCCNC(=N)N)NC(=O)[C@H](Cc1c[nH]cn1)NC(=O)[C@@H](NC(=O)[C@H](CCSC)NC(=O)[C@@H]1CSSC[C@H](NC(=O)[C@@H](N)CO)C(=O)N[C@@H](CC(N)=O)C(=O)N[C@@H]([C@@H](C)O)C(=O)N[C@@H](C)C(=O)N[C@@H]([C@@H](C)O)C(=O)N1)[C@@H](C)O)C(C)C)C(C)C)[C@@H](C)O)C(=O)NCC(=O)N[C@@H](Cc1ccccc1)C(=O)N[C@@H](CCCCN)C(=O)N[C@H](C(=O)N[C@@H](Cc1ccccc1)C(=O)NCC(N)=O)C(C)C` [CRSP] (H-SCNTATCMTHRLVGLLSRSGSMVRSNLLPTKMGFKVFG-NH2; disulfide 2-7), for which the “Immunoactivity of CRSP” value runs as follows: (pig Liver) 0.13 ± 0.02 pmol/g tissue; (pig Lung) 0.11 ± 0.00 pmol/g tissue; (pig Midbrain) 7.5 ± 0.9 pmol/g tissue; (pig Olfactory bulb) 0.74 ± 0.22 pmol/g tissue; (pig Ovary) 0.18 ± 0.09 pmol/g tissue; (pig Pancreas) 0.066 ± 0.010 pmol/g tissue. Besides, the “Immunoactivity of CRSP” value runs as follows: (pig Pons/Medulla oblongata) 2.2 ± 0.3 pmol/g tissue; (pig Posterior pituitary) 96 ± 15 pmol/g tissue; (pig Small intestine) 0.072 ± 0.018 pmol/g tissue; (pig Spinal cord) 0.52 ± 0.06 pmol/g tissue; (pig Spleen) 0.11 ± 0.01 pmol/g tissue; (pig Stomach) 0.29 ± 0.00 pmol/g tissue. The “Immunoactivity of CRSP” value (pig Thalamus) amounted to 3.5 ± 0.4 pmol/g tissue.
